Pooled drug test results. Numbers come from NIAID ChemDB, via PubChem.

Common to all: tests in culture; organism: Mycobacterium tuberculosis

Percent inhibition refers to the dose given; in toxicity tests it is the harm to the cells. Two numbers with a dash give a range or band. ECn is the concentration giving n% inhibition of infection, replication or growth. MIC bound: limit read from a one-dose screen. MIC50, MIC90 and the like: level of inhibition, or share of isolates inhibited. Rows are shuffled and stem from different studies. Blank or dashed fields: not listed here.

SMILES	changes	setting	dose	read by	measure	cells	strain or isolate	value
FC(F)(F)Oc1ccc(Oc2ccc(Nc3ncnc4ccsc34)cc2)cc1	-	-	-	luminescence	MIC50	-	H37Rv	>20 µM
O=C1C=CC(O)(c2nc3ccccc3[nH]2)C=C1	-	-	-	-	EC50	-	H37Rv	<6.25 µg/mL
CCOC(=O)c1ccc2c(c1)nc(-c1ccc(Cl)cc1)n2CCN1CCCOC1	-	-	-	resazurin / fluorescence	EC50	-	H37Rv	44.75 µM
CC(C)[C@H]1CO[C@]23CCN(Cc4ccc(C(F)(F)F)cc4)C[C@H]2OCC(=O)N13	-	-	-	resazurin	MIC98	-	H37Rv	>10 µM
Fc1cc(Nc2ncnc3ccccc23)ccc1N1CCOCC1	-	-	-	luminescence	MIC50	-	H37Rv	>50 µM
CC(C)c1ccc2c(c1)CCC1C2(C)CCCC1(C)C(O)c1ccccc1	-	-	12.5 µg/mL	BACTEC	inhibition	-	H37Rv	98%
CCOC(=O)c1ccc2c(c1)nc(-c1ccc3c(c1)OCO3)n2CCN1CCCOC1	-	-	-	resazurin / fluorescence	EC50	-	H37Rv	>100 µM
COc1cc(C(O)(CCN(C)C)C(c2cc(-c3ccc(F)cc3)cnc2OC)c2cccc(OC)c2F)cc(OC)n1	-	-	-	resazurin	MIC90	-	H37Rv	4.3 µM
Cc1cc2oc(=O)cc(-c3ccccc3)c2c(C)c1-c1cccc(C(F)(F)F)c1	FadD32	-	-	turbidity	EC90	-	H37Rv	>64 µM
Cc1cccc(NCC(=O)NN)c1C	-	-	12.5 µg/mL	BACTEC	inhibition	-	H37Rv	19%
O=C/C=C/c1ccccc1	-	-	-	absorbance	MIC	-	H37Ra	256 µg/mL
O=C(O)c1ccc(Nc2nnc(-c3ccncc3)s2)cc1O	-	-	-	broth dilution	MIC90	-	H37Rv	>12.5 µg/mL
CCOC(=O)c1ccc2c(c1)nc(-c1ccc(O)cc1)n2CCN1CCCC1=O	-	-	-	resazurin / fluorescence	MIC	-	H37Rv	>100 µM
CCOC(=O)C(Cc1ccccc1)NOP(=O)(CCC(=O)N1C[C@@H](n2cnc3c(=O)[nH]c(N)nc32)[C@H](OC[C@@H](O)P(=O)(ONC(Cc2ccccc2)C(=O)OCC)ONC(Cc2ccccc2)C(=O)OCC)C1)ONC(Cc1ccccc1)C(=O)OCC	-	-	-	-	MIC90	Macrophage	H37Rv	85 µM
CC(=O)N1N=C(C2=C(C)NC(=O)NC2c2ccccc2F)OC1c1ccccc1[N+](=O)[O-]	-	-	250 µg/mL	agar / visual reading	inhibition	-	H37Rv	56%
COc1cc(C(O)(CCN(C)C)C(c2cc(-c3ccccc3)cnc2OC)c2cccc(OC)c2F)cc(OC)n1	-	-	-	resazurin	MIC90	-	H37Rv	5.7 µM
FS(F)(F)(F)(F)c1ccc(CCNc2ncnc3ccccc23)cc1	-	-	-	luminescence	MIC50	-	H37Rv	>20 µM
O=C1C=CC(O)(c2nccs2)C=C1	-	-	-	-	EC50	-	H37Rv	<6.25 µg/mL
N#Cc1ccc(Oc2ccc(Nc3ncnc4ccccc34)cc2)nc1	-	-	-	luminescence	MIC50	-	H37Rv	25 µM
Cc1cc([N+](=O)[O-])c2nnnn2c1	-	-	6.25 µg/mL	resazurin	inhibition	-	H37Rv	6%
Clc1ccc(CCNc2ncnc3ccsc23)cc1Cl	-	-	-	luminescence	MIC50	-	H37Rv	>50 µM
C1CSCCCSCCCSCCCSCCCSC1	-	-	12.5 µg/mL	BACTEC	inhibition	-	H37Rv	86%
O=C1C=CC(O)(c2cccs2)C=C1	-	-	-	-	EC50	-	H37Rv	<6.25 µg/mL
COc1cc([C@](O)(CCN(C)C)[C@@H](c2cc(-c3ccc(OC(F)(F)F)cc3)cnc2OC)c2cccc(OC)c2F)cc(OC)n1	-	-	-	resazurin	MIC90	-	H37Rv	0.6 µM
Cc1c(NC(=S)Nc2ccc(C(=O)O)c(O)c2)c(=O)n(-c2ccccc2)n1C	-	-	-	broth dilution	MIC90	-	H37Rv	>12.5 µg/mL
COc1ccc(C2OC(C3=C(C)NC(=O)NC3c3ccccc3F)=NN2C(C)=O)cc1	-	-	250 µg/mL	agar / visual reading	inhibition	-	H37Rv	48%
CCOC(=O)c1ccc2c(c1)nc(-c1ccc(OC)cc1)n2CCN1CCCOC1	-	-	-	resazurin / fluorescence	EC90	-	H37Rv	>100 µM
CC(=O)O[C@@H]1OC=C2CC[C@H]3[C@]4(C)CC[C@H]5C(C)(C)CCC[C@]5(C)[C@H]4C[C@@H](OC(C)=O)[C@]3(C)[C@H]21	-	-	-	-	MIC	-	H37Ra	6 µM
CC(=O)Nc1ccc(/C=N/NC(N)=S)cc1F	-	-	-	resazurin	MIC90	-	Erdman	0.2 µg/mL
FC(F)(F)Oc1ccc(Oc2ccc(Nc3ncnc4ccccc34)cc2)cc1	-	-	-	luminescence	MIC50	-	H37Rv	>20 µM
CCOc1ccc(N2C(=O)/C(=C/c3ccc(OC)cc3OC)S/C2=N\c2ccccn2)cc1	-	-	-	-	MIC	-	H37Rv	≥25 µg/mL
OC1(c2ccc(F)cc2)CCN(c2ccc(Nc3ncnc4ccccc34)cc2)CC1	-	-	-	luminescence	MIC50	-	H37Rv	>50 µM
CCOc1ccc(N2C(=O)/C(=C/c3ccc(OC)cc3)S/C2=N\c2ccccn2)cc1	-	-	-	-	MIC	-	H37Rv	≥25 µg/mL
NCc1ccccc1-c1c2nc(c(-c3ccccc3CN)c3ccc([nH]3)c(-c3ccccc3CN)c3nc(c(-c4ccccc4CN)c4ccc1[nH]4)C=C3)C=C2	-	-	6.25 µg/mL	resazurin	inhibition	-	H37Rv	56%
COc1cc(O)c2c(=O)cc(-c3ccc(O)cc3)oc2c1	-	multidrug-resistant	-	resazurin	MIC	-	Clinical isolates	>50 µg/mL
O=S(=O)(c1ccc(OC(F)(F)F)cc1)C1CCN(c2ccc(Nc3ncnc4ccccc34)cc2)CC1	-	-	-	luminescence	MIC50	-	H37Rv	>50 µM
C=CCN1C(=O)/C(=C/c2cccc(OC)c2O)S/C1=N\c1nc2ccccc2s1	-	-	-	-	MIC	-	H37Rv	≥25 µg/mL
CCOC(=O)c1ccc2c(c1)nc(-c1cccc(-c3ccc(F)cc3)c1)n2CCN1CCCC1=O	-	-	-	resazurin / fluorescence	EC90	-	H37Rv	83.63 µM
CC(C)[C@H]1CO[C@]23CCN(C(=O)CCCc4ccc(C(F)(F)F)cc4)C[C@H]2CCC(=O)N13	-	-	-	resazurin	MIC98	-	H37Rv	1–10 µM
FC(F)(F)c1ccc(Oc2ccc(Nc3ncnc4ccccc34)cc2)cn1	-	-	-	luminescence	MIC50	-	H37Rv	>50 µM
O=C(O)c1ccc(-n2c(-c3ccncc3)n[nH]c2=S)cc1O	-	-	-	broth dilution	MIC90	-	H37Rv	>12.5 µg/mL
NNC(=O)C1C(O)CCC2CN3CCc4c([nH]c5ccccc45)C3CC21	-	-	12.5 µg/mL	BACTEC	inhibition	-	H37Rv	12%
CC(=O)N1N=C(C2=C(C)NC(=O)NC2c2ccccc2F)OC1c1ccccc1F	-	-	250 µg/mL	agar / visual reading	inhibition	-	H37Rv	62%
O=C1C=CC(O)(c2cc3ccccc3[nH]2)C=C1	-	-	-	-	EC50	-	H37Rv	<6.25 µg/mL
Cc1ccc(Oc2ccc(Nc3ncnc4ccccc34)cc2)cc1	-	-	-	luminescence	MIC50	-	H37Rv	>20 µM
COc1cc([C@@](O)(CCN(C)C)[C@@H](c2cc(-c3ccncc3)cnc2OC)c2cccc(OC)c2F)cc(OC)n1	-	-	-	resazurin	MIC90	-	H37Rv	28.06 µM
COCC1OC2OC3C(COC)OC(OC4C(COC)OC(OC5C(COC)OC(OC6C(COC)OC(OC7C(COC)OC(OC8C(COC)OC(OC1C(O)C2O)C(O)C8O)C(O)C7O)C(O)C6O)C(O)C5O)C(O)C4O)C(O)C3O.O=Cc1ccccc1	-	-	12.5 µg/mL	BACTEC	inhibition	-	H37Rv	7%
C=CCN1C(=O)/C(=C/c2ccc(NC(C)=O)cc2)S/C1=N\c1nc2ccccc2s1	-	-	-	-	MIC	-	H37Rv	≥25 µg/mL
Cc1ccc(-c2c(C)cc3oc(=O)cc(C)c3c2C)cc1	FadD32	-	-	turbidity	EC90	-	H37Rv	>250 µM
COc1cc(O)c2c(=O)c(OC)c(-c3ccc(O)cc3)oc2c1OC	-	-	-	resazurin	MIC	-	H37Rv	>50 µg/mL
N=C1C=CC(O)(c2nc3ccccc3s2)C(SCC(NC(=O)CCC(N)C(=O)O)C(=O)NCC(=O)O)C1	-	-	6.25 µg/mL	-	inhibition	-	H37Rv	28%
COc1ccccc1-c1c(C)cc2oc(=O)cc(-c3ccccc3)c2c1C	FadD32	-	-	turbidity	EC90	-	H37Rv	>64 µM
Fc1ccc2c(Nc3ccccc3Oc3ccc(C(F)(F)F)cc3)ncnc2c1	-	-	-	luminescence	MIC50	-	H37Rv	>50 µM
C=CCN1C(=O)/C(=C\C=C\c2ccccc2)S/C1=N\c1nc2ccccc2s1	-	-	-	-	MIC	-	H37Rv	≥25 µg/mL
Cc1ccc(-n2c3nc(=O)n(C)c(=O)c-3nc3ccccc32)cc1	-	-	-	BACTEC	MIC bound	-	H37Rv	>12.5 µg/mL
CCOC(=O)c1ccc2c(c1)nc(-c1ccc(OC)cc1)n2CCN1CCCC1=O	-	-	-	resazurin / fluorescence	EC90	-	H37Rv	>100 µM
CC(C)[C@H]1CCO[C@]23CCN(Cc4ccccc4)C[C@H]2CCC(=O)N13	-	-	-	resazurin	MIC98	-	H37Rv	1–10 µM
CCCCC1CCCCCCc2[nH]c(/C=C3\N=C(c4ccc[nH]4)C=C3OC)cc21.Cl	-	-	-	-	MIC	-	TAC-R	3.1 µg/mL
COc1cc([C@](O)(CCN(C)C)[C@@H](c2cc(-c3ccccn3)cnc2OC)c2cccc(OC)c2F)cc(OC)n1	-	-	-	resazurin	MIC90	-	H37Rv	7.65 µM
O=C1C=CC(O)(c2cnc3ccccc3c2)C=C1	-	-	-	-	EC50	-	H37Rv	<6.25 µg/mL
O=C(Nc1ccc(Br)cc1)c1cnccn1	-	-	-	-	MIC	-	KM-R	>12.5 µg/mL
FC(F)(F)c1ccc(N2CCC3(CCN(c4ccc(Nc5ncnc6ccccc56)cc4)CC3)CC2)cc1	-	-	-	luminescence	MIC50	-	H37Rv	>50 µM
COc1cc(C(O)(CCN(C)C)C(c2cc(-c3ccc(C#N)cc3)cnc2OC)c2cccc(OC)c2F)cc(OC)n1	-	-	-	resazurin	MIC90	-	H37Rv	6 µM
CC(C)[C@H]1CO[C@]23CCN(Cc4ccc(N5CCC(OC(F)(F)F)CC5)cc4)C[C@H]2CCC(=O)N13	-	-	-	resazurin	MIC98	-	H37Rv	<1 µM
Cc1cccc(C)c1N1C(=O)C(=O)C(c2nc3ccccc3s2)/C(=N/NC(=O)c2ccccc2O)C1=O	-	-	-	BACTEC	MIC	-	H37Rv	≥12.5 µg/mL
FC(F)(F)Oc1ccc(Oc2ccc(Nc3ncnc4cc(Cl)ccc34)cc2)cc1	-	-	-	luminescence	MIC50	-	H37Rv	>20 µM
CC(=O)Nc1ccc(C2=N/C(=C\c3ccc(Cl)cc3)C(=O)O2)cc1	-	-	12.5 µg/mL	BACTEC	inhibition	-	H37Rv	68%
Clc1ccc(CCNc2ncnc3ccccc23)cc1	-	-	-	luminescence	MIC50	-	H37Rv	>10 µM
O=S(=O)(N=C([S-])[S-])c1ccccc1.[K+].[K+]	-	-	-	BACTEC	MIC bound	-	H37Rv	>12.5 µg/mL
FC(F)(F)c1ccnc(Oc2ccc(Nc3ncnc4ccccc34)cc2)n1	-	-	-	luminescence	MIC50	-	H37Rv	>20 µM
OC(c1cc(C(F)(F)F)nc2c(Cl)cc(Cl)cc12)C1CCCCN1	-	-	6.25 µg/mL	resazurin	inhibition	-	H37Rv	99%
COc1ccc2c(Nc3ccc(Oc4ccc(OC(F)(F)F)cc4)cc3)ncnc2c1	-	-	-	luminescence	MIC50	-	H37Rv	>20 µM
Cc1ccc2nc(-c3ccc(N=NNc4ccc(-c5nc6ccc(C)c(S(=O)(=O)O)c6s5)cc4)cc3)sc2c1S(=O)(=O)O	-	-	6.25 µg/mL	BACTEC	inhibition	-	H37Rv	0%
CO[C@H]1/C=C/O[C@@]2(C)Oc3c(C)c(O)c4c(O)c(cc(O)c4c3C2=O)NC(=O)/C(C)=C\C=C\[C@H](C)[C@H](O)[C@@H](C)[C@@H](O)[C@@H](C)[C@H](OC(C)=O)[C@@H]1C	-	-	-	-	MIC	-	H37Rv (thioamide-resistant)	6.3 µg/mL
COC12OCCN(CCO)C1=CC(=O)C1(C)N=NC(C)C12	-	-	12.5 µg/mL	BACTEC	inhibition	-	H37Rv	0%
CCOc1ccc(N2C(=O)/C(=C/c3ccc(N(C)C)cc3)S/C2=N\c2ccccn2)cc1	-	-	-	-	MIC	-	H37Rv	≥25 µg/mL
COc1ccc(/C=N/NC(=O)C(=O)N/N=C/c2ccc(OC)c(S(=O)(=O)O)c2)cc1S(=O)(=O)O	-	-	12.5 µg/mL	BACTEC	inhibition	-	H37Rv	-8%
COc1cc(C(O)(CCN(C)C)C(c2cc(-c3cccc(Cl)c3)cnc2OC)c2cccc(OC)c2F)cc(OC)n1	-	-	-	resazurin	MIC90	-	H37Rv	8.3 µM
O=C1NC2(c3ccccc3)NC(=O)NC2(c2ccccc2)N1	-	-	-	BACTEC	MIC bound	-	H37Rv	>12.5 µg/mL
FC(F)(F)c1ccc(N2CCN(c3ccc(Nc4ncnc5ccccc45)cc3)CC2)cc1	-	-	-	luminescence	MIC50	-	H37Rv	>10 µM
COC(=O)Nc1nc2cc(Cl)c(Cl)cc2[nH]1	-	-	12.5 µg/mL	BACTEC	inhibition	-	H37Rv	-33%
O=C(O)c1ccc(NC(=O)C(F)(F)F)cc1O	-	-	12.5 µg/mL	resazurin	inhibition	-	H37Rv	92%
CCOC(=O)CNC(=O)C(=[N+]=[N-])C(=O)COc1ccccc1	-	-	-	BACTEC	MIC	-	H37Rv	≥12.5 µg/mL
O=C(Nc1ccc(C(=O)O)c(O)c1)NC1CCCCC1	-	-	12.5 µg/mL	resazurin	inhibition	-	H37Rv	90%